Anti-infective test results gathered from many reports (values: NIAID ChemDB through PubChem).

Common to all: growth or infection tests; organism: Mycobacterium avium intracellulare; read-out: MIC

Neighbouring rows are from separate reports. An empty or dashed field is not shown.

compound | strain | value
CCCCCCCCCCNNC(=O)O[C@H]1[C@H](O[C@@H]2[C@@H](C)[C@H](O[C@H]3C[C@@](C)(OC)[C@@H](OC(C)=O)[C@H](C)O3)[C@@H](C)C(=O)O[C@H](CC)[C@@](C)(O)[C@H](O)[C@@H](C)/C(=N/OCCCC3CCCCC3)[C@H](C)CC2(C)O)O[C@H](C)C[C@@H]1N(C)C | 20066 (clarithromycin-susceptible) | >50 µg/mL
CC[C@H]1OC(=O)[C@H](C)[C@@H](OC2C[C@@](C)(OC)[C@@H](O)[C@H](C)O2)[C@H](C)[C@@H](O[C@@H]2O[C@H](C)C[C@H](N(C)C)[C@H]2O)C(C)(O)C[C@@H](C)/C(=N\OCCCOc2ccccc2)[C@H](C)[C@@H](O)[C@]1(C)O | 20066 | 1.56 µg/mL
CO[C@H]1/C=C/O[C@@]2(C)Oc3c(C)c(O)c4c(O)c(c5c(c4c3C2=O)NC2(CCN(CC(C)C)CC2)N=5)=NC(=O)/C(C)=C\C=C\[C@H](C)[C@H](O)[C@@H](C)[C@@H](O)[C@@H](C)[C@H](OC(C)=O)[C@@H]1C | CIPT 140310031 | 0.1 µg/mL
CC[C@H]1OC(=O)[C@H](C)[C@@H](OC(=O)CCCCCc2ccccc2)[C@H](C)[C@@H](O[C@@H]2O[C@H](C)C[C@H](N(C)C)[C@H]2O)C(C)(O)C[C@@H](C)/C(=N\OCCCOc2ccccc2)[C@H](C)[C@@H](O)[C@]1(C)O | 20066 (clarithromycin-susceptible) | 6.25 µg/mL
CO[C@H]1/C=C/O[C@@]2(C)Oc3c(C)c(O)c4c(O)c(c5c(c4c3C2=O)NC2(CCN(CC(C)C)CC2)N=5)=NC(=O)/C(C)=C\C=C\[C@H](C)[C@H](O)[C@@H](C)[C@@H](O)[C@@H](C)[C@H](OC(C)=O)[C@@H]1C | 23-Feb | 0.25 µg/mL
NNC(=O)c1ccncc1 | N-752 (HIV-) | 1 µg/mL
CCNC(=O)[C@@H](NC(=O)Cc1ccccc1)[C@@H]1N[C@@H](C(=O)NCCNC(=O)[C@@H]2N[C@@H]([C@H](NC(=O)Cc3ccccc3)C(=O)NCC)SC2(C)C)C(C)(C)S1 | CIPT 140310034 | 25 µg/mL
O=C(c1ccncc1)N(/N=C/c1ccc(Cl)cc1)C(=O)c1cnccn1 | ATCC 13950 | >16 µg/mL
c1ccc(CSc2ncnc3ccccc23)cc1 | D 39/93 | 63 µM
COc1cc2ccnc3c2c(c1OC(=O)c1ccc(F)c(F)c1)N(C)C=C3 | - | 20 µg/mL
O=C1C(=S)N(c2ccccc2)c2ccccc21 | CNCTC D38/92 | 32 µM
COc1cc2ccnc3c2c(c1OC(=O)c1cccc(C)c1)N(C)C=C3 | - | 10 µg/mL
CCCSc1ncnc2ccccc12 | D 38/92 | 125 µM
CCCCCCO/N=C1\[C@H](C)CC(C)(O)[C@H](O[C@@H]2O[C@H](C)C[C@H](N(C)C)[C@H]2O)[C@@H](C)[C@H](OC2C[C@@](C)(OC)[C@@H](O)[C@H](C)O2)[C@@H](C)C(=O)O[C@H](CC)[C@@](C)(O)[C@H](O)[C@H]1C | 20066 (clarithromycin-susceptible) | 3.13 µg/mL
COc1ccc2c(c1)N(C[C@H](C)CN(C)C)c1ccccc1S2 | V 915 | 50 µg/mL
COc1cc2ccnc3c2c(c1OC(=O)c1ccc(OC(F)(F)F)cc1)N(C)C=C3 | - | 5 µg/mL
CCCCCCO/N=C1\[C@H](C)CC(C)(O)[C@H](O[C@@H]2O[C@H](C)C[C@H](N(C)C)[C@H]2O)[C@@H](C)[C@H](OC2C[C@@](C)(OC)[C@@H](O)[C@H](C)O2)[C@@H](C)C(=O)O[C@H](CC)[C@@](C)(O)[C@H](O)[C@H]1C | 20066 | 3.13 µg/mL
CC(C)CSc1ncnc2ccccc12 | D 38/92 | 125 µM
CCn1c(S)c(N=NC(N)=O)c2ccccc21 | CNCTC D39/93 | 100 µM
CC[C@H]1OC(=O)[C@H](C)[C@@H](OC2C[C@@](C)(OC)[C@@H](O)[C@H](C)O2)[C@H](C)[C@@H](O[C@@H]2O[C@H](C)C[C@H](N(C)C)[C@H]2O)C(C)(O)C[C@@H](C)/C(=N\OCCCCCc2ccccc2)[C@H](C)[C@@H](O)[C@]1(C)O | 20066 | 3.13 µg/mL
CC[C@H]1OC(=O)[C@H](C)[C@@H](OC(=O)Cc2ccncc2)[C@H](C)[C@@H](O[C@@H]2O[C@H](C)C[C@H](N(C)C)[C@H]2O)C(C)(O)C[C@@H](C)/C(=N\OCCCOc2ccccc2)[C@H](C)[C@@H](O)[C@]1(C)O | 20066 (clarithromycin-susceptible) | 12.5 µg/mL
O=C(c1ccncc1)N(/N=C/c1cccc(Oc2ccccc2)c1)C(=O)c1cnccn1 | ATCC 13950 | >16 µg/mL
CO[C@H]1/C=C/O[C@@]2(C)Oc3c(C)c(O)c4c(O)c(c5c(c4c3C2=O)NC2(CCN(CC(C)C)CC2)N=5)=NC(=O)/C(C)=C\C=C\[C@H](C)[C@H](O)[C@@H](C)[C@@H](O)[C@@H](C)[C@H](OC(C)=O)[C@@H]1C | N-481 (HIV-) | 0.25 µg/mL
CCCCCCCCCCCCCCCCO/N=C1\[C@H](C)CC(C)(O)[C@H](O[C@@H]2O[C@H](C)C[C@H](N(C)C)[C@H]2O)[C@@H](C)[C@H](OC2C[C@@](C)(OC)[C@@H](O)[C@H](C)O2)[C@@H](C)C(=O)O[C@H](CC)[C@@](C)(O)[C@H](O)[C@H]1C | 20066 | >50 µg/mL
COc1cc2ccnc3c2c(c1OC(=O)c1ccc(C)cc1)N(C)C=C3 | - | 5 µg/mL
CCCCCCCCO/N=C1\[C@H](C)CC(C)(O)[C@H](O[C@@H]2O[C@H](C)C[C@H](N(C)C)[C@H]2O)[C@@H](C)[C@H](OC2C[C@@](C)(OC)[C@@H](O)[C@H](C)O2)[C@@H](C)C(=O)O[C@H](CC)[C@@](C)(O)[C@H](O)[C@H]1C | 20066 | 6.25 µg/mL
CN(C)CCCN1c2ccccc2Sc2ccc(Cl)cc21 | R 6550 | 25 µg/mL
c1ccc(CCSc2ncnc3ccccc23)cc1 | D 38/92 | 32 µM
CC[C@H]1OC(=O)[C@H](C)[C@@H](OC2C[C@@](C)(OC)[C@@H](O)[C@H](C)O2)[C@H](C)[C@@H](O[C@@H]2O[C@H](C)C[C@H](N(C)C)[C@H]2O)C(C)(O)C[C@@H](C)/C(=N\OCCSc2ccccc2)[C@H](C)[C@@H](O)[C@]1(C)O | 20066 | 3.13 µg/mL
CC(=O)NC[C@H]1CN(c2ccc(N3CCN(c4ccc([N+](=O)[O-])s4)CC3)c(F)c2)C(=O)O1 | 559/97 | 0.25 µg/mL
CC[C@H]1OC(=O)[C@H](C)[C@@H](O[C@H]2C[C@@](C)(OC)[C@@H](O)[C@H](C)O2)[C@H](C)[C@@H](O[C@@H]2O[C@H](C)C[C@H](N(C)C)[C@H]2O)[C@](C)(OC)C[C@@H](C)C(=O)[C@H](C)[C@@H](O)[C@]1(C)O | N-897 (HIV-) | 0.5 µg/mL
CC[C@H]1OC(=O)[C@H](C)[C@@H](OC2C[C@@](C)(OC)[C@@H](O)[C@H](C)O2)[C@H](C)[C@@H](O[C@@H]2O[C@H](C)C[C@H](N(C)C)[C@H]2O)C(C)(O)C[C@@H](C)/C(=N\OCCCc2ccccc2)[C@H](C)[C@@H](O)[C@]1(C)O | 20066 (clarithromycin-susceptible) | 1.56 µg/mL
C/C=C(/C)C(=O)Oc1ccc(OC)cc1C1OC1C | ATCC 19709 | 5 µg/mL
O=C(c1ccncc1)N(/N=C/c1cccc(Cl)c1)C(=O)c1cnccn1 | ATCC 13950 | >16 µg/mL
C[C@@H](O)[C@H]1C(=O)N2C(C(=O)O)=C(SCCN=CN)C[C@H]12 | CIPT 140310030 | 10 µg/mL
Clc1ccc2c(c1)nc1cc(Nc3ccccc3)c(=NC3CCCCC3)cc-1n2-c1ccccc1 | P2 | 1 µg/mL
CO[C@H]1/C=C/O[C@@]2(C)Oc3c(C)c(O)c4c(=O)c(c5oc6cc(N7CCN(CC(C)C)CC7)cc(=O)c6nc5c4c3=C2O)NC(=O)/C(C)=C\C=C\[C@H](C)[C@H](O)[C@@H](C)[C@@H](O)[C@@H](C)[C@H](OC(C)=O)[C@@H]1C | N-486 (HIV-) | 0.016 µg/mL
CCCCCN1C(=S)C(=O)c2ccccc21 | CNCTC D39/93 | 32 µM
CN[C@@H]1[C@H](O[C@H]2[C@H](O[C@H]3[C@H](O)[C@@H](O)[C@H](N=C(N)N)[C@@H](O)[C@@H]3N=C(N)N)O[C@@H](C)[C@]2(O)C=O)O[C@@H](CO)[C@H](O)[C@H]1O | CIPT 140310054 | >50 µg/mL
CCC(C)C(=O)Oc1ccc(OC)cc1C1OC1C | ATCC 19709 | 3.1 µg/mL
C=CCSc1ncnc2ccccc12 | D 39/93 | 500 µM
OCCN1CCN(CCC=C2c3ccccc3Sc3ccc(Cl)cc32)CC1 | V 915 | 12.5 µg/mL
CC[C@H]1OC(=O)[C@H](C)[C@@H](O[C@H]2C[C@@](C)(OC)[C@@H](OC(C)=O)[C@H](C)O2)[C@H](C)[C@@H](O[C@@H]2O[C@H](C)C[C@H](N(C)C)[C@H]2O)C(C)(O)C[C@@H](C)/C(=N\OCCCC2CCCCC2)[C@H](C)[C@@H](O)[C@]1(C)O | 20066 (clarithromycin-susceptible) | 1.56 µg/mL
NC(=S)N=Nc1c(S)n(-c2ccccc2)c2ccccc12 | CNCTC D38/92 | 125 µM
O=C(c1ccncc1)N(NCc1cccc(Cl)c1)C(=O)c1cnccn1 | ATCC 13950 | 8 µg/mL
CC[C@H]1OC(=O)[C@H](C)[C@@H](OC2C[C@@](C)(OC)[C@@H](O)[C@H](C)O2)[C@H](C)[C@@H](O[C@@H]2O[C@H](C)C[C@H](N(C)C)[C@H]2O)C(C)(O)C[C@@H](C)/C(=N\OCc2ccccc2)[C@H](C)[C@@H](O)[C@]1(C)O | 20066 | 6.25 µg/mL
OCCN1CCN(CC/C=C2/c3ccccc3Sc3ccc(C(F)(F)F)cc32)CC1 | E 48067 | 12.5 µg/mL
COc1ccc(/C=N/N(C(=O)c2ccncc2)C(=O)c2cnccn2)cc1 | ATCC 13950 | >16 µg/mL